Results of unrelated studies side by side (data: NIAID ChemDB).

MIC50, MIC90 and the like: level of inhibition, or share of isolates inhibited. Percent inhibition refers to the dose given; in toxicity tests it is the harm to the cells. Blank or dashed fields: not listed here. ICn: concentration for n% inhibition. ECn is the concentration giving n% inhibition of infection, replication or growth. Rows are shuffled and stem from different studies. a–b is a range or a potency band.

SMILES	kind	organism	strain	cells	protein	read by	read-out	dose	value
Cc1cc(-c2ccc(N=Nc3ccc4c(S(=O)(=O)O)cc(S(=O)(=O)O)c(N)c4c3O)c(C)c2)ccc1N=Nc1ccc2c(S(=O)(=O)O)cc(S(=O)(=O)O)c(N)c2c1O	culture	Adenovirus	TYPE 3	Human embryonic lung cells		cytopathic effect	inhibition	5 µg/mL	10%
O=C(O)c1sc(-c2ccccc2)cc1NS(=O)(=O)c1c(F)cc(F)cc1F	target	Hepatitis C virus			NS3 ATPase		IC50		<5 µM
COc1cc(CN2CCc3nc(N)nc(N)c3C2)c(Br)c(OC)c1OC	target	Cryptosporidium parvum	TYPE 1		Dihydrofolate reductase		IC50		2.1 µM
O=C1C(c2[nH]c3ccc(S(=O)(=O)O)cc3c2O)=Nc2ccc(S(=O)(=O)O)cc21	culture	Herpes simplex virus		Human amnion AV3 cells		cytopathic effect	inhibition	5 µg/mL	0%
CC(C)=CCN(C(=O)c1ccc(C)cc1)c1cc(-c2ccccc2)sc1C(=O)O	target	Hepatitis C virus			NS3 ATPase		IC50		5–20 µM
O=C1Oc2cc(O)c(O)cc2C2C(c3ccc(O)c(O)c3)=C3c4cc(O)c(O)cc4C=CN3C12	host protein	Molluscum contagiosum virus			Topoisomerase		IC50		0.23 µM
Cc1ccnc2c1NC(=O)c1cccnc1N2C1CC1	host protein	Human			DNA polymerase gamma		IC50		>24 µM
Cc1nc(NCCCCNc2ccnc3cc(Cl)ccc23)nc(-c2ccccc2)c1C(=O)OC(C)C	culture	Cryptococcus gattii	L24/01				MIC99		8 µg/mL
Nc1nc2c(ncn2CC(CO)OCP(=O)(O)O)c(=O)[nH]1	host protein	Human			Hypoxanthine-guanine phosphoribosyltransferase	absorbance	Ki		5.9 µM
O=C(Cn1c(-c2cscn2)nc2ccccc21)Nc1ccc2ccccc2c1	host protein	Human			IMPDH2	fluorescence / absorbance	inhibition	5 µM	≤10%
Cc1ccc(S(=O)(=O)Nc2cc(-c3ccc(F)cc3)sc2C(N)=O)cc1	target	Hepatitis C virus			NS3 ATPase		IC50		5–20 µM
CCCCCCCc1c(C)[nH]c2cc(OC)ccc2c1=O	host protein				HFF	absorbance	IC50		>10 µM
NC(=O)c1ccc(-c2cc(NS(=O)(=O)c3ccc(Cl)cc3)c(C(=O)O)s2)cc1	target	Hepatitis C virus			NS3 ATPase		IC50		<5 µM
C=CCc1ccc(OC)c(OC)c1	culture	Candida albicans	ATCC 90028			turbidity	MIC90		340 µg/mL
O=C(Nc1ccc(S(=O)(=O)[O-])c2cccc(S(=O)(=O)[O-])c12)c1ccccc1	culture	Herpes simplex virus		Human conjunctiva cells		cytopathic effect	inhibition	10 µg/mL	0%
CCOC(=O)c1cnc(NCCCCNc2ccnc3cc(Cl)ccc23)nc1C	culture	Cryptococcus neoformans	VM-MCMMPI				MIC99		8 µg/mL
O=S(=O)(O)CO	culture	Herpes simplex virus		Human amnion AV3 cells		cytopathic effect	inhibition	10 µg/mL	70%
Fc1ccc(N2CCCCC2)c(NC(=S)c2ccncc2)c1	host protein				GCK	kinase activity	inhibition	10 µM	4%
COc1cc(CN2CCc3nc(N)nc(N)c3C2)cc(OC)c1OC	target	Cryptosporidium parvum	TYPE 1		Dihydrofolate reductase		IC50		>10 µM
COc1c(-c2ccc3cc(NS(C)(=O)=O)ccc3c2)cc(-n2ccc(=O)[nH]c2=O)cc1C(C)(C)C	host protein				Human polymerase beta		IC50		>100 µM
[N-]=[N+]=Nc1ccc(C(=O)CSc2nc3c(ncn3[C@H]3C[C@H](O)[C@@H](COP(=O)(O)OP(=O)(O)OP(=O)(O)O)O3)c3nccn23)cc1	host protein	Escherichia coli			DNA polymerase I	radiometric	Ki		92 µM
COC(=O)CCCN(CCn1cnc2c(=O)[nH]c(N)nc21)CCP(=O)(O)O	host protein	Human			Hypoxanthine-guanine phosphoribosyltransferase	absorbance	Ki		0.1 µM
CCOC(=O)/C=C/[C@H](C[C@@H]1CCNC1=O)NC(=O)[C@@H](CC(=O)[C@@H](NC(=O)c1cc(C)on1)C(C)C)Cc1ccc(F)cc1	culture	Rhinovirus	Isolate 13	OHIO HELA-I		cytopathic effect / visual reading	EC50		0.01 µg/mL
Cc1cccc(C(=O)N2CCN(c3cncc(-c4ccc5ccccc5c4)n3)CC2C)c1	target	Cytomegalovirus			UL97 kinase		inhibition	10 µM	>15%
Nc1nc(N)c2nc(Cc3ccc(Cl)c(Cl)c3)c(Cc3ccc(Cl)c(Cl)c3)nc2n1	target	Cryptosporidium parvum	TYPE 2		Dihydrofolate reductase		IC50		0.25 µM
CC(C)(O/N=C(\C(=O)NCC(O)O)c1csc(N)n1)C(=O)O	host protein	Bos primigenius			DNA polymerase alpha		IC50		0.01 µM
CCOC(=O)c1c(C)nc(NCCCNc2ccnc3cc(Cl)ccc23)nc1-c1ccccc1	culture	Cryptococcus gattii	ATCC 24065				MIC99		8 µg/mL
Cc1cccc(CC2CCc3nc(N)nc(N)c3C2)c1	target	Cryptosporidium parvum	TYPE 2		Dihydrofolate reductase		IC50		0.81 µM
CCO/N=C/c1ccc(OCCC2CCN(c3ccc(Cl)nn3)CC2)cc1	culture	Rhinovirus	FO2-2513 (ICAM-1 receptor group 69)	KB		neutral red	EC50		0.052 µM
Nc1nc(N)c2c(n1)CCC(Cc1ccsc1)C2	target	Cryptosporidium parvum	TYPE 1		Dihydrofolate reductase		IC50		1 µM
Nc1ccccc1S(=O)(=O)O	culture	Adenovirus	TYPE 3	Human embryonic lung cells		cytopathic effect	inhibition	10 µg/mL	0%
COc1cccc2nc(N)nc(N)c12	target	Cryptosporidium parvum	TYPE 2		Dihydrofolate reductase		IC50		0.56 µM
O=C(Cn1c(-c2nccs2)nc2ccccc21)Nc1ccc2ccccc2c1	host protein	Human			IMPDH2	fluorescence / absorbance	IC50		≥40 µM
CCC(CC)[C@H](NC(C)=O)[C@@H]1[C@H](O)[C@@H](C(=O)O)C[C@H]1N=C(N)N	culture	Influenza A virus	Influenza A/Johannesburg/33/94 (H3N2)	MDCK			EC50		0.16 µM
CCCC(=O)N(Cc1cccc(C)c1)c1cc(-c2ccccc2)sc1C(=O)O	target	Hepatitis C virus			NS3 ATPase		IC50		5–20 µM
O=C(Cn1c(-c2cscn2)nc2ccccc21)Nc1ccc(Br)cc1	host protein	Human			IMPDH2	fluorescence / absorbance	inhibition	5 µM	≤20%
COc1cc2c(cc1OC)C1=C(c3ccc(OC)c(OS(=O)(=O)O)c3)C3c4cc(OC)c(OS(=O)(=O)O)cc4OC(=O)C3N1C=C2	host protein	Molluscum contagiosum virus			Topoisomerase		IC50		70 µM
CCCc1cccc(-c2nc3nc(N)nc(N)c3nc2-c2cccc(CCC)c2)c1	target	Cryptosporidium parvum	TYPE 2		Dihydrofolate reductase		IC50		>10 µM

Again, the opening 3 rows:

SMILES,kind,organism,strain,cells,protein,read by,read-out,dose,value
Cc1cc(-c2ccc(N=Nc3ccc4c(S(=O)(=O)O)cc(S(=O)(=O)O)c(N)c4c3O)c(C)c2)ccc1N=Nc1ccc2c(S(=O)(=O)O)cc(S(=O)(=O)O)c(N)c2c1O,culture,Adenovirus,TYPE 3,Human embryonic lung cells,,cytopathic effect,inhibition,5 µg/mL,10%
O=C(O)c1sc(-c2ccccc2)cc1NS(=O)(=O)c1c(F)cc(F)cc1F,target,Hepatitis C virus,,,NS3 ATPase,,IC50,,<5 µM
COc1cc(CN2CCc3nc(N)nc(N)c3C2)c(Br)c(OC)c1OC,target,Cryptosporidium parvum,TYPE 1,,Dihydrofolate reductase,,IC50,,2.1 µM